The values that follow come from patent US20240299591A1 (priority 2021, published 2024).

Some values come without a unit; they compare only within their column. Where a SMILES comes first, the peptide text is derived from it. [ ]: non-standard residue; d: D form. The star is where a group is joined. X2 = O=C1OC2(c3ccc(O)cc3Oc3cc(O)ccc32)c2cccc(C(=O)*)c21

For this data set, the system named is reconstructed cornea-like epithelium (RhCE, EpiOcular™). In words: Viability of reconstructed cornea-like epithelium (eye irritation model). The format is cell-based. As for the experimental part:
FIG. 4a is a graph of the viability reconstructed cornea-like epithelium (RhCE, EpiOcular™) after incubation with MFIGA001. NC=Negative Control; PC=Positive Control. FIG. 4b is a graph of the viability reconstructed cornea-like epithelium (RhCE, EpiOcular™) after incubation with 10 µM of MFIGA001a and MFIGAF001b. NC=Negative Control; PC=Positive Control; A2=MFIGAF001a; and B1=MFIGAF001b.
MFIGAF001 was also assessed independently by a CRO (Evotec) in an OECD compliant reconstructed cornea-like epithelial cell model (RhCE, EpiOcular™).

As to `N=C(N)NCCC[C@@H]1NC(=O)CNC(=O)[C@H](Cc2c[nH]c3ccccc23)NC(=O)[C@H](Cc2ccccc2)NC(=O)[C@H](Cc2c[nH]c3ccccc23)NC(=O)[C@@H](Cc2ccccc2)NC(=O)[C@H](CCCCN)NC(=O)[C@H](CCCCN)NC1=O` [MFIGAF001, Cyclo(Arg-Lys-Lys-phe-Trp-Phe-Trp-Gly)] (HELM PEPTIDE1{F.W.G.R.K.K.[dF].W}$PEPTIDE1,PEPTIDE1,1:R1-8:R2$$$V2.0), the “Mean of OD” value reads like this: (0.1 mg/ml) 1.910; (0.2 mg/mL) 1.908; (0.4 mg/mL) 1.940; (0.5 mg/mL) 2.051.
Take `N=C(N)NCCC[C@@H]1NC(=O)CNC(=O)[C@H](CCCCNC(=O)c2cccc3c2C(=O)OC32c3ccc(O)cc3Oc3cc(O)ccc32)NC(=O)[C@H](Cc2c[nH]c3ccccc23)NC(=O)[C@H](Cc2ccccc2)NC(=O)[C@H](Cc2c[nH]c3ccccc23)NC(=O)[C@@H](Cc2ccccc2)NC(=O)[C@H](CCCCN)NC(=O)[C@H](CCCCN)NC1=O` [MFIGAF001b, Cyclo(Arg-Lys-Lys-phe-Trp-Phe-Trp-Lys(CF)-Gly)] (cyclo(FWK(X2)GRKK[dF]W)): the “Mean of OD” value (10 μM) stood at 3.319.
